Construct, isoform or probe ends are uncertain for at least one entry. Where cells or extracts were used, other partners may take part.
Molecular target: DgdR (2,2-dialkylglycine decarboxylase repressor, LysR family) (Pseudomonas cepacia) (UniProt P16931)
Assay: EMSA
Details: protein in a lysate after overexpression

## GCCGAGGTGCGCGCGCTCAGCGCGGC (double strand)
Single shifted band, 1 ug extract, 50 ng DNA, 10 mM Tris pH 7.6, room temp, not affected by 20 mM 2-methylalanine, only the site is given
  binding result: binds

## GCCGAGGTGCGCGCGCTCAGCGCGGCCGCGCTGCTGCTCAGCACCGGCGCG (double strand)
Only the site is given
  binding result: binds

## GCCGAGGTGCGCGCGCTCAGCGCGGC (double strand) [179 bp SalI fragment of the 367 bp product (contains O2)]
Single shifted band after SalI digestion, only the site is given
  binding result: binds

## GCCGAGGTGCGCGCGCTCAGCGCGGC (double strand) [507 bp SalI fragment of the 788 bp product (contains O2)]
Single shifted band stated, DNA Binding Assays paragraph says only the 179 bp fragment shifted, only the site is …
  binding result: binds

— patent US5356796A, “Repressor protein and operon for regulating expression of polypeptides and its use in the preparation of 2,2-dialkyglycine decarboxylase of Pseudomonas cepacia” (priority 1992, dated 1994)
